Experimental data: patent US20030103987

Key:
Arf1 = Arf1 (UniProt P84077)
Cdc42 = Cdc42 (UniProt P60953)
H-Ras = H-Ras (UniProt P01112)
Rac1 = Rac1 (UniProt P63000)
RhoA = RhoA (UniProt P61586)

## Clostridium sordellii lethal toxin (LT)
Arf1
  LT catalysed glucosylation (UDP-[14C]Glc incorporation): no incorporation of glucose catalyzed by LT could be found on Arf1
Cdc42
  LT catalysed glucosylation (UDP-[14C]Glc incorporation, SDS-PAGE, phosphorimage): RhoA, Cdc42 and Rab6 were not modified "in vitro" by LT
H-Ras
  LT catalysed glucosylation (UDP-[14C]Glc incorporation, SDS-PAGE, phosphorimage): H-Ras, Rap2, Ral and Rac1 were substrates for LT catalysed glucosylation
Rab6
  LT catalysed glucosylation (UDP-[14C]Glc incorporation, SDS-PAGE, phosphorimage): RhoA, Cdc42 and Rab6 were not modified "in vitro" by LT
Rac1
  LT catalysed glucosylation (UDP-[14C]Glc incorporation, SDS-PAGE, phosphorimage): H-Ras, Rap2, Ral and Rac1 were substrates for LT catalysed glucosylation
Rap2
  LT catalysed glucosylation (UDP-[14C]Glc incorporation, SDS-PAGE, phosphorimage): H-Ras, Rap2, Ral and Rac1 were substrates for LT catalysed glucosylation
RhoA
  LT catalysed glucosylation (UDP-[14C]Glc incorporation, SDS-PAGE, phosphorimage): RhoA, Cdc42 and Rab6 were not modified "in vitro" by LT
